Results of unrelated studies side by side (data: NIAID ChemDB).

Shared fields: whole-cell or culture tests; species: Candida albicans; read-out: MIC

An empty or dashed field is not shown. Two numbers with a dash give a range or band. Lines come from different laboratories, so protocols vary.

{"smiles": "Cc1ccc(-c2cc(-c3ccc(Cl)cc3)nc(/N=C3\\C(=O)Nc4ccc(Br)cc43)n2)cc1", "value": "39.06 µg/mL"}
{"smiles": "O=C(Nc1ccc(C(F)(F)F)cc1)c1ncccc1O", "strain": "ATCC 44859", "value": "250 µM"}
{"smiles": "Cc1cc(O)c2c(c1)C(=O)c1cc(C(=O)O)cc(O)c1C2=O", "value": "50 µg/mL"}
{"smiles": "O=C(CCN1C(=O)S/C(=C\\c2ccccc2Br)C1=O)Nc1cccc(O)c1", "value": "25 µg/mL"}
{"smiles": "Cc1ccc(-c2cc(-c3ccc(Cl)cc3)nc(/N=C3\\C(=O)N(CN(C)C)c4ccccc43)n2)cc1", "value": "78.12 µg/mL"}
{"smiles": "O=C(CCN1C(=O)S/C(=C\\c2ccc(O)c(O)c2O)C1=O)Nc1ccccc1S", "value": "12.5 µg/mL"}
{"smiles": "C=C1/C=C(\\C)[C@H](CC)OC(=O)[C@H](C)C(=O)C(O)(CO)C/C(OC)=C/[C@@H](C)C1", "strain": "MY1005", "value": "6.25 µg/mL"}
{"smiles": "CN(C)c1ccc(C2CC(c3cccs3)=NN2C(=O)CSC(=S)N2CCCCC2)cc1", "strain": "Clinical isolates", "value": "125 µg/mL"}
{"smiles": "Oc1c(-c2ccc(-c3ccccc3)cc2)nc2ncccn12", "strain": "A", "value": ">125 µg/mL"}
{"smiles": "CCCOC(=O)/C=C/c1ccccc1", "value": "0.002 µg/mL"}
{"smiles": "C[C@H](n1nnc(CCN2CCN(c3ccccc3)CC2)n1)[C@](O)(Cn1cncn1)c1ccc(F)cc1F", "strain": "V-01-191A-261 (resistant)", "value": "8 µg/mL"}
{"smiles": "COC(=O)C(C#N)C1C(=O)C(C)=C(C)C(=O)C1Sc1ccccc1", "strain": "Berkout KCCM 50235", "value": "50 µg/mL"}
{"smiles": "O=C(Nc1ccc(Cl)cc1)c1ccccc1O", "strain": "ATCC 44859", "value": "15.63 µM"}
{"smiles": "O=C(CSC(=S)N1CCCC1)N1N=C(c2cccs2)CC1c1ccc(O)cc1", "strain": "Clinical isolates", "value": "125 µg/mL"}
{"smiles": "O=C(/C=C/c1ccccc1)Oc1ccccc1", "value": "0.002 µg/mL"}
{"smiles": "CN1O[C@H](COc2ccc(Cl)cc2)CC1(Cn1ccnc1)c1ccco1", "strain": "ATCC26232", "value": "20 µg/mL"}
{"smiles": "CCC(C)CC(C)CCCCCCCCC(=O)N[C@@H]1C[C@@H](O)[C@@H](O)NC(=O)[C@@H]2[C@@H](O)CCN2C(=O)[C@H]([C@@H](O)CCN)NC(=O)[C@H]([C@H](O)[C@@H](O)c2ccc(O)cc2)NC(=O)[C@@H]2C[C@@H](O)CN2C(=O)[C@H]([C@H](C)O)NC1=O", "strain": "40 isolates", "value": "0.12–0.5 µg/mL"}
{"smiles": "COC(=O)C(C#N)C1C(=O)C(C)=C(C)C(=O)C1Sc1ccc(C)cc1", "strain": "Berkout KCCM 50235", "value": ">50 µg/mL"}
{"smiles": "Cc1cc(=O)n(-c2ccc(N=Nc3c(-c4c(O)c5ccccc5n(C)c4=O)[nH][nH]c3=O)cc2)n1C", "strain": "ATCC 10231", "value": ">100 µg/mL"}
{"smiles": "CC[C@@H]1OC(=O)[C@H](C)C(=O)C(O)(CO)C/C(SC)=C/[C@@H](C)Cc2cccc1c2", "strain": "ATCC 90028", "value": ">64 µg/mL"}
{"smiles": "O=C(CCN1C(=O)S/C(=C\\c2ccccc2Br)C1=O)Nc1ccccc1[N+](=O)[O-]", "value": "25 µg/mL"}
{"smiles": "CC(=O)NNC(=O)NCCCCCCNC(=O)NNC(C)=O", "value": "7.5 µg/mL"}
{"smiles": "Cc1ccc(C2CC(c3cccs3)=NN2C(=O)CSC(=S)N2CCCCC2)cc1", "strain": "Clinical isolates", "value": "250 µg/mL"}
{"smiles": "Cc1cc(O)c2c(c1)C(=O)c1cccc(O)c1C2=O", "value": "50 µg/mL"}
{"smiles": "CN1C(=O)/C(=c2/[nH][nH]c(=O)/c2=C\\c2ccccc2)C(=O)c2ccccc21", "strain": "ATCC 10231", "value": "50 µg/mL"}
{"smiles": "COc1ccc(C2CC(=O)C(C)C(c3ccc(OC)cc3)N2OCCc2nc3ccccc3o2)cc1", "value": "50 µg/mL"}
{"smiles": "CCCCOc1ccccc1N1CCN(CCc2nnn(C(C)C(O)(Cn3cncn3)c3ccc(F)cc3F)n2)CC1", "value": "0.5 µg/mL"}
{"smiles": "Clc1ccc(COC(Cn2ccnc2)c2ccc(Cl)cc2Cl)c(Cl)c1", "strain": "IFO 1594", "value": "0.063 µg/mL"}
{"smiles": "O=C1CC(c2ccccc2)N(OCCc2nc3ccccc3o2)C(c2ccccc2)C1", "value": "100 µg/mL"}
{"smiles": "O=C(Nc1ccccc1)c1ncccc1O", "strain": "ATCC 44859", "value": "250 µM"}
{"smiles": "Cc1ccc(-c2cc(-c3ccc(Cl)cc3)nc(/N=C3\\C(=O)N(CN4CCOCC4)c4ccc(Br)cc43)n2)cc1", "value": "39.06 µg/mL"}
{"smiles": "CC1C(=O)CC(c2ccc(Cl)cc2)N(OCCc2nc3ccccc3o2)C1c1ccc(Cl)cc1", "value": "25 µg/mL"}
{"smiles": "O=C(Nc1ccc(Cl)cc1)c1ncccc1O", "strain": "ATCC 44859", "value": ">125 µM"}
{"smiles": "Cn1c(=O)c(-c2[nH][nH]c(=O)c2C=Nc2ccc(N)cc2)c(O)c2ccccc21", "strain": "ATCC 10231", "value": "50 µg/mL"}
{"smiles": "C[C@H](n1nnnc1CCN1CCN(c2ccccc2Cl)CC1)[C@](O)(Cn1cncn1)c1ccc(F)cc1F", "strain": "V-01-191A-261 (resistant)", "value": "4 µg/mL"}
{"smiles": "COc1ccc2c(c1OC)CN1CCc3cc4c(cc3C1=C2)OCO4", "strain": "ATCC 10231", "value": "128 µg/mL"}
{"smiles": "O=C(CSC(=S)N1CCCC1)N1N=C(c2cccs2)CC1c1ccc(Cl)cc1", "strain": "Clinical isolates", "value": "250 µg/mL"}
{"smiles": "Oc1c(-c2ccccc2)nc2ncccn12", "strain": "A", "value": ">125 µg/mL"}
{"smiles": "CC(C)CCOC(=O)/C=C/c1ccccc1", "value": "0.002 µg/mL"}
{"smiles": "COc1cc([C@H]2COc3c(ccc(O)c3OC)C2)c(OC)c(O)c1OC", "value": ">200 µg/mL"}
{"smiles": "O=C(CSC(=S)N1CCCCC1)N1N=C(c2cccs2)CC1c1ccc(F)cc1", "strain": "Clinical isolates", "value": "500 µg/mL"}
{"smiles": "COC(=O)C(C#N)C1C(=O)C(C)=C(C)C(=O)C1Sc1cccc(C)c1", "strain": "Berkout KCCM 50235", "value": ">50 µg/mL"}
{"smiles": "Cc1c(O)cccc1C(=O)N[C@@H](CSc1ccccc1)[C@H](O)CN1C[C@H]2CCCC[C@H]2C[C@H]1C(=O)NC(C)(C)C", "strain": "I97", "value": ">64 µg/mL"}
{"smiles": "COc1ccc(OC[C@H]2CC(Cn3ccnc3)(c3ccco3)N(C)O2)cc1", "strain": "ATCC26232", "value": "70 µg/mL"}
{"smiles": "Cc1ccc(-c2cc(-c3ccc(Cl)cc3)nc(/N=C3\\C(=O)N(CN(C)C)c4ccc(Br)cc43)n2)cc1", "value": "39.06 µg/mL"}
{"smiles": "COc1ccccc1N1CCN(CCc2nnnn2[C@@H](C)[C@](O)(Cn2cncn2)c2ccc(F)cc2F)CC1", "strain": "V-01-191A-261 (resistant)", "value": "4 µg/mL"}
{"smiles": "Oc1c(-c2ccc(Cl)cc2Cl)nc2ccccn12", "strain": "A", "value": ">125 µg/mL"}
{"smiles": "O=C(c1ncc(-c2c[nH]c3ccccc23)[nH]1)c1c[nH]c2cc(O)ccc12", "value": ">50 µg/mL"}
{"smiles": "CCCCCCCC/C=C/CC/C=C/[C@H]1C[C@H]([C@](O)(CC(=O)O[C@@H](C(=O)O)[C@H](CC(=O)O)C(=O)O)C(=O)O)C(=O)O1", "value": "0.43 µM"}
{"smiles": "Oc1c(-c2ccc(Cl)cc2)nc2ccccn12", "strain": "A", "value": ">125 µg/mL"}
{"smiles": "Cc1ccc(-c2cc(-c3ccc(Cl)cc3)nc(/N=C3\\C(=O)N(CN4CCCCC4)c4ccccc43)n2)cc1", "value": "78.12 µg/mL"}
{"smiles": "C[C@H](n1nnc(CCN2CCN(C(c3ccccc3)c3ccccc3)CC2)n1)[C@](O)(Cn1cncn1)c1ccc(F)cc1F", "strain": "V-01-191A-261 (resistant)", "value": "4 µg/mL"}
{"smiles": "COC1=NC(C)CC(OC(=O)c2ccc3c(c2)OCO3)=N1", "value": ">100 µg/mL"}
{"smiles": "COc1ccc(C2CC(c3cccs3)=NN2C(=O)CSC(=S)N2CCCC2)cc1", "strain": "Clinical isolates", "value": "250 µg/mL"}
{"smiles": "O=c1[nH]nc(-c2ccccc2)n1CCCCCCn1c(-c2ccccc2)n[nH]c1=O", "strain": "ATCC 90028", "value": "1.87 µg/mL"}
{"smiles": "CN(C)c1ccc(C2CC(c3cccs3)=NN2C(=O)CSC(=S)N2CCCC2)cc1", "strain": "Clinical isolates", "value": "125 µg/mL"}
{"smiles": "CCC(C)CC(C)CCCCCCCCC(=O)N[C@H]1C[C@@H](O)[C@@H](OCCN)NC(=O)[C@@H]2C[C@@H](O)CN2C(=O)[C@H]([C@H](O)CCN)NC(=O)[C@H]([C@H](O)[C@@H](O)c2ccc(O)cc2)NC(=O)[C@@H]2C[C@@H](O)CN2C(=O)[C@H]([C@@H](C)O)NC1=O", "strain": "40 isolates", "value": "64 µg/mL"}
{"smiles": "Cn1c(=O)c(-c2[nH][nH]c(=O)c2N=Nc2ccc(Br)cc2)c(O)c2ccccc21", "strain": "ATCC 10231", "value": ">100 µg/mL"}
{"smiles": "C[C@@H](SC1COC(/C=C/C=C/c2ccc(C#N)cc2F)OC1)[C@](O)(Cn1cncn1)c1ccc(F)cc1F", "strain": "CAL-0097", "value": "4 µg/mL"}
{"smiles": "Cc1ccc(-c2cc(-c3ccc(Cl)cc3)nc(/N=C3\\C(=O)Nc4ccccc43)n2)cc1", "value": "39.06 µg/mL"}
{"smiles": "OC(Cn1cncn1)(Cn1cncn1)c1ccc(F)cc1F", "strain": "3532-K31", "value": "12.5 µg/mL"}
{"smiles": "CN1O[C@H](c2cccc([N+](=O)[O-])c2)CC1(Cn1ccnc1)c1ccco1", "strain": "ATCC26232", "value": ">20 µg/mL"}
{"smiles": "Oc1c(-c2ccc(Cl)cc2)nc2ncccn12", "strain": "A", "value": ">125 µg/mL"}
{"smiles": "O=C(/C=C/c1ccccc1)N1CCOCC1", "value": "0.002 µg/mL"}

The first 7 rows once more:

smiles | strain | value
Cc1ccc(-c2cc(-c3ccc(Cl)cc3)nc(/N=C3\C(=O)Nc4ccc(Br)cc43)n2)cc1 | - | 39.06 µg/mL
O=C(Nc1ccc(C(F)(F)F)cc1)c1ncccc1O | ATCC 44859 | 250 µM
Cc1cc(O)c2c(c1)C(=O)c1cc(C(=O)O)cc(O)c1C2=O | - | 50 µg/mL
O=C(CCN1C(=O)S/C(=C\c2ccccc2Br)C1=O)Nc1cccc(O)c1 | - | 25 µg/mL
Cc1ccc(-c2cc(-c3ccc(Cl)cc3)nc(/N=C3\C(=O)N(CN(C)C)c4ccccc43)n2)cc1 | - | 78.12 µg/mL
O=C(CCN1C(=O)S/C(=C\c2ccc(O)c(O)c2O)C1=O)Nc1ccccc1S | - | 12.5 µg/mL
C=C1/C=C(\C)[C@H](CC)OC(=O)[C@H](C)C(=O)C(O)(CO)C/C(OC)=C/[C@@H](C)C1 | MY1005 | 6.25 µg/mL